Row | Substance | Kd (310-1H02 Fab (human)) [nM] | koff (310-1H02 Fab (human)) [s⁻¹] | kon (310-1H02 Fab (human)) [M⁻¹ s⁻¹] | Kd (310-7D11 Fab (human)) [nM] | koff (310-7D11 Fab (human)) [s⁻¹] | kon (310-7D11 Fab (human)) [M⁻¹ s⁻¹] | Kd (326-289.74 Fab (human)) [nM] | koff (326-289.74 Fab (human)) [s⁻¹] | kon (326-289.74 Fab (human)) [M⁻¹ s⁻¹] | Kd (326-366.26 Fab (human)) [nM] | koff (326-366.26 Fab (human)) [s⁻¹] | kon (326-366.26 Fab (human)) [M⁻¹ s⁻¹] | Kd (310-12D03 Fab (human)) [nM] | koff (310-12D03 Fab (human)) [s⁻¹] | kon (310-12D03 Fab (human)) [M⁻¹ s⁻¹]
1 | H5 A/Texas/37/2024 haemagglutinin ectodomain, soluble trimer | 2.14 | 0.000131 | 61000 | 0.322 | 3.3e-05 | 102000 | – | – | – | – | – | – | – | – | –
2 | H5 A/Cambodia/2302009/2023 haemagglutinin ectodomain, soluble trimer | 3.89 | 0.000144 | 37100 | 0.301 | 3.95e-05 | 131000 | 1.21 | 3.02e-05 | 25000 | 0.332 | 4.6e-05 | 139000 | 14.2 | 0.000449 | 31500
3 | H5 A/Vietnam/1194/2004 haemagglutinin ectodomain, soluble trimer | – | – | – | < 0.126 | < 1e-05 | 79100 | 3.25 | 6.81e-05 | 20900 | < 0.0767 | < 1e-05 | 130000 | – | – | –
4 | H5 A/Indonesia/05/2005 haemagglutinin ectodomain, soluble trimer | 1.4 | 0.00011 | 78600 | < 0.105 | < 1e-05 | 95500 | 0.508 | 1.41e-05 | 27700 | 0.109 | 1.62e-05 | 148000 | 0.3 | 4.81e-05 | 160000
5 | H5 A/Victoria/149/2024 haemagglutinin ectodomain, soluble trimer | 15.9 | 0.000884 | 55400 | – | – | – | < 0.0537 | < 1e-05 | 186000 | 0.209 | 3.04e-05 | 146000 | 6.01 | 0.000365 | 60700
6 | H5 A/Sichuan/26221/2014 haemagglutinin ectodomain, soluble trimer | 36.9 | 0.00237 | 64200 | 50.4 | 0.00386 | 76600 | < 0.0734 | < 1e-05 | 136000 | 0.576 | 0.000131 | 227000 | 19.2 | 0.00482 | 251000
